Record: PubChem BioAssay AID1259414 (Drosophila RNAi Screening Center, 2018)
Assay: 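Fly genes that alter Wolbachia amount inside host cells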 (primary screen). Cells: Drosophila JW18 cells infected with Wolbachia. Reagent: long dsRNA against Drosophila genes, 0.25 µg dsRNA per well of a 384-well plate. Duration: 5 days. Treatment: cells persistently infected with Wolbachia before knock-down; no added drug. Detection: 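Imaged fluorescence in situ signal for Wolbachia 23S rRNA per DAPI-counted host cell, given as a robust z-score within each plate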. Scale: Wolbachia per cell robust z: higher = more Wolbachia per host cell than the plate typical. Rule for the call: 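Hit when robust z is 1.5 or more, or -1.5 or less, in at least two of three replicates; excludes dsRNAs with several or no targets, genes not expressed in JW18 and well A1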.
In all, the deposit lists about 24,000 reagents; below is an unselected part of those that have a named target and a result. Over the whole deposit, about 1,210 (5%) are marked active. 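Inactive calls also include excluded dsRNAs with several or no targets, genes unexpressed in JW18, and well A1, regardless of score.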 Reagents against one gene are numbered here.

Gene | dsRNA no. | Wolbachia per cell robust z, rep 1 | Wolbachia per cell robust z, rep 2 | Wolbachia per cell robust z, rep 3 | call
mRpS9 (GeneID 40932) | 1 | 0.227 | -1.02 | -8.77 | inactive
mRpS9 (GeneID 40932) | 2 | -0.497 | -2.8 | -0.424 | inactive
fd96Cb (GeneID 43011) | 1 | 0.0664 | 0.206 | 0.715 | inactive
fd96Cb (GeneID 43011) | 2 | 0.268 | -0.369 | 0.525 | inactive
Crtc (GeneID 39970) | 1 | 1.17 | 0.926 | 2.95 | inactive
Crtc (GeneID 39970) | 2 | -0.0929 | -0.528 | 0.608 | inactive
Brd8 (GeneID 43460) | 1 | 1.41 | 0.579 | 2.36 | inactive
Brd8 (GeneID 43460) | 2 | 0.545 | 0.503 | 0.296 | inactive
CR33318 (GeneID 3771976) | 1 | -0.446 | 0.236 | -0.483 | inactive
CG33259 (GeneID 2768950) | 1 | -0.163 | 0.316 | -0.796 | inactive
CG33259 (GeneID 2768950) | 2 | 0.681 | 0.68 | 0.874 | inactive
Atpalpha (GeneID 48971) | 1 | -0.871 | -0.113 | -2.05 | inactive
Atpalpha (GeneID 48971) | 2 | -3.63 | -0.877 | -2.51 | inactive
subdued (GeneID 42340) | 1 | 0.228 | 0.573 | 0.369 | inactive
CheA29a (GeneID 246659) | 1 | 0.0442 | 0.211 | -0.99 | inactive
Pgd (GeneID 31185) | 1 | 0.129 | -6.41 | 0.778 | inactive
Pgd (GeneID 31185) | 2 | -0.966 | 0.77 | 1.29 | inactive
CG32437 (GeneID 40366) | 1 | -0.92 | -0.277 | 0.294 | inactive
CG32437 (GeneID 40366) | 2 | -2.8 | -0.401 | 1.07 | inactive
CG32437 (GeneID 40366) | 3 | 0.722 | 1.32 | 1.17 | inactive
CG14015 (GeneID 33780) | 1 | 0.674 | 1.63 | -0.107 | inactive
CG14015 (GeneID 33780) | 2 | 0.932 | 0.535 | -0.88 | inactive
CAP (GeneID 36084) | 1 | 0.696 | 0.891 | -0.67 | inactive
CAP (GeneID 36084) | 2 | -3.73 | 0.615 | 0.643 | inactive
CAP (GeneID 36084) | 3 | -0.273 | 0.738 | 0.53 | inactive
CAP (GeneID 36084) | 4 | -1.14 | 0.126 | -2.1 | inactive
CAP (GeneID 36084) | 5 | 1.01 | -1.59 | -0.382 | inactive
bap (GeneID 42537) | 1 | -1.35 | -1.64 | -0.00785 | inactive
bap (GeneID 42537) | 2 | -0.506 | 0.343 | -0.659 | inactive
CG11695 (GeneID 32106) | 1 | 1.06 | -0.413 | -2.4 | inactive
CG11695 (GeneID 32106) | 2 | -4.53 | 0.227 | -6.73 | active
CG17666 (GeneID 39452) | 1 | 0.376 | 0.78 | -0.503 | inactive
CG17666 (GeneID 39452) | 2 | -0.747 | -1.46 | -0.974 | inactive
CG18659 (GeneID 35929) | 1 | 2.15 | 0.983 | 0.118 | inactive

Called active, of those listed so far:
Gene | dsRNA no. | Wolbachia per cell robust z, rep 1 | Wolbachia per cell robust z, rep 2 | Wolbachia per cell robust z, rep 3 | call
CG11695 (GeneID 32106) | 2 | -4.53 | 0.227 | -6.73 | active

More results follow.
Gene | dsRNA no. | Wolbachia per cell robust z, rep 1 | Wolbachia per cell robust z, rep 2 | Wolbachia per cell robust z, rep 3 | call
ss (GeneID 41988) | 1 | -1.14 | 0.353 | -0.911 | inactive
RpS5a (GeneID 32700) | 1 | 0.241 | -2.41 | 11.7 | inactive
CG13901 (GeneID 38095) | 1 | -0.351 | -2.31 | -0.845 | inactive
CG5726 (GeneID 37082) | 1 | -0.641 | 0.214 | -7.17 | inactive
CG5726 (GeneID 37082) | 2 | -0.557 | -0.997 | -0.557 | inactive
Grl43a (GeneID 35705) | 1 | -0.373 | -1.15 | -0.298 | inactive
CG42327 (GeneID 41401) | 1 | -1.5 | 0.612 | 0.747 | inactive
CG42327 (GeneID 41401) | 2 | -1.99 | 0.135 | -0.354 | inactive
CG42327 (GeneID 41401) | 3 | 0.595 | 0.465 | 0.79 | inactive
CG42327 (GeneID 41401) | 4 | -0.698 | 1.04 | -0.309 | inactive
CG42327 (GeneID 41401) | 5 | -0.886 | 0.257 | -0.315 | inactive
arm (GeneID 31151) | 1 | 1.35 | 0.39 | -8.33 | inactive
arm (GeneID 31151) | 2 | 0.548 | 1.41 | 1.52 | inactive
wds (GeneID 53428) | 1 | -1.09 | 0.86 | -0.938 | inactive
Hrb87F (GeneID 48535) | 1 | 0.633 | 1.28 | 0.582 | inactive
Hrb87F (GeneID 48535) | 2 | 0.296 | 0.571 | -3.37 | inactive
Tsp42Ea (GeneID 59178) | 1 | -3.58 | -0.308 | -0.204 | inactive
Tsp42Ea (GeneID 59178) | 2 | -0.494 | -1.81 | -0.871 | inactive
Rcd-1 (GeneID 32966) | 1 | 0.208 | 0.706 | 0.864 | inactive
CG10919 (GeneID 40917) | 1 | -0.401 | -1.46 | 0.997 | inactive
PH4alphaNE3 (GeneID 326114) | 1 | -1.35 | -0.773 | -0.91 | inactive
PH4alphaNE3 (GeneID 326114) | 2 | -0.9 | 0.0665 | -0.0405 | inactive
Rpt3 (GeneID 32047) | 1 | 2.21 | 2.12 | 2.35 | active
Rpt3 (GeneID 32047) | 2 | 1.84 | 2.49 | 2.23 | active
CARPA (GeneID 31687) | 1 | -1.8 | 0.405 | -0.382 | inactive
CARPA (GeneID 31687) | 2 | -0.113 | -0.119 | 1.36 | inactive
CG11668 (GeneID 41606) | 1 | -0.66 | -0.0828 | 0.608 | inactive
CG7222 (GeneID 36138) | 1 | 0.562 | 0.572 | -2.66 | inactive
Tep5Psi (GeneID 35250) | 1 | -0.423 | -1.32 | -0.196 | inactive
Tep5Psi (GeneID 35250) | 2 | 0.428 | 0.125 | 0.0202 | inactive
Osi10b (GeneID 40764) | 1 | -5.54 | 0.67 | 0.368 | inactive
rgr (GeneID 35843) | 1 | 0.863 | 0.22 | -0.616 | inactive
rgr (GeneID 35843) | 2 | -0.674 | -0.0157 | -1.19 | inactive
dpr16 (GeneID 40619) | 1 | -0.534 | 0.728 | 1.11 | inactive
dpr16 (GeneID 40619) | 2 | -0.221 | 0.237 | 0.642 | inactive
